In assay [1] the test system is HCV replicon cells (replicon RNA level). As to the kind of experiment: Cell-Based HCV Replicon Assay. The conditions noted are these: replicon RNA level by real time PCR (Taqman), cells harvested on day 3. On the procedure: To measure cell-based anti-HCV activity of the a Compound of Formula (I), replicon cells were seeded at 5000 cells/well in 96-well collagen I-coated Nunc plates in the presence of the Compound of Formula (I). Various concentrations of a Compound of Formula (I), typically in 10 serial 2-fold dilutions, were added to the assay mixture, with the starting concentration ranging from 250 μM to 1 μM. The final concentration of DMSO was 0.5%, fetal bovine serum was 5%, in the assay media. Cells were harvested on day 3 by the addition of 1× cell lysis buffer (Ambion cat #8721). The replicon RNA level was measured using real time PCR (Taqman assay). The amplicon was located in 5B. The PCR primers were: 5B.2F, ATGGACAGGCGCCCTGA (SEQ ID NO: 2); 5B.2R, […] (SEQ ID NO: 3); the probe sequence was FAM-labeled CACGCCATGCGCTGCGG (SEQ ID NO: 4). GAPDH RNA was used as endogenous control and was amplified in the same reaction as NS5B (multiplex PCR) using primers and VIC-labeled probe recommended by the manufacturer (PE Applied Biosystem). […] Alternatively, to quantitate the absolute amount of replicon RNA, a standard curve was established by including serially diluted T7 transcripts of replicon RNA in the Taqman assay. […]

Assay [2] deals with HCV NS5B polymerase (NS5BΔCT21, from HCV-Con 1 isolate, genotype 1b) (Hepatitis C virus genotype 1b, UniProt Q9WMX2). The experiment in a line: HCV NS5B Polymerase Inhibition Assay. The conditions noted are these: incorporation of radiolabeled CTP, 22° C. for 2 hours. The text has this: A chemically synthesized 75-mer version, designated DCoH75, whose sequence matches the 3′-end of D-RNA, and DCoH75ddC, where the 3′-terminal cytidine of DCoH75 is replaced by dideoxycytidine, were used for assaying the NS5B enzyme activity as described in Ferrari et al., 12th International Symposium on HCV and Related Viruses, P-306 (2005). The sequence of the template RNA was: 5′-UGUGCCGGUCUUUCUGAACGGGAUAUAAACCUGGCCAGCUUCAUCGAACAAGUUGCCGUGUCUAUGACAUAGAUC-3′ (SEQ ID NO: 1). A soluble C-terminal 21-amino acid truncated NS5B enzyme form (NS5BΔCT21, from HCV-Con 1 isolate, genotype 1b, Genbank accession number AJ238799) was produced and purified from Escherichia coli as C-terminal polyhistidine-tagged fusion protein as described in Ferrari et al., J. Virol. 73:1649-1654 (1999). […] Reactions were incubated at 22° C. for 2 hours, then stopped by adding 150 mM EDTA, washed in DE81 filter plate in 0.5M di-basic sodium phosphate buffer, pH 7.0, and counted using Packard TopCount after the addition of scintillation cocktail. Polynucleotide synthesis was monitored by the incorporation of radiolabeled CTP. The effect of the Compounds of Formula (I) on the polymerase activity was evaluated by adding various concentrations of a Compound of Formula (I), typically in 10 serial 2-fold dilutions, to the assay mixture. […]

pEC50, pIC50: −log10 of the molar value.

The pEC50 is the EC50 on a negative log10 scale, so that one unit is a factor of ten. Broadly, the pIC50 is the negative decadic logarithm of the IC50, by convention in mol/L. In turn, `CS(=O)(=O)NC(=O)c1c(-c2ccc[nH]c2=O)c2cc3c(cc2n1Cc1cc(F)ccc1F)CCO3` showed a negative-log EC50 (pEC50) in assay [1] of under 5.30. The pIC50 in assay [2] was 7.00 to 7.60.
